Compound potency records, mixed from different reports. Data source: NIAID ChemDB in PubChem.

Shared fields: whole-cell or culture tests; agent: Mycobacterium tuberculosis

Blank or dashed fields: not listed here. MIC50, MIC90 and the like: level of inhibition, or share of isolates inhibited. Rows are shuffled and stem from different studies. Inhibition is in % at the dose shown (toxicity tests: loss of growth or viability). MIC bound: limit read from a one-dose screen. a–b is a range or a potency band. ECn: concentration that inhibits the pathogen or its effect by n%.

compound,method,strain or isolate,dose,mutations,cells,measure,result
O=[N+]([O-])c1ccc(CNCC2CCCC(CNCc3ccc([N+](=O)[O-])cc3)C2)cc1,,H37Rv,20 µM,,,inhibition,0%
N#Cc1c(-c2cccnc2)nc(N2CCN(c3ccccc3)CC2)[nH]c1=O,,H37Ra,,,,MIC,>50 µg/mL
CC(=O)c1c(C)[nH]c(C(=O)N/N=C/c2cccc([N+](=O)[O-])c2)c1C,resazurin,H37Rv,,,,MIC,<6.25 µg/mL
NC(CCSS(=O)(=O)O)=NCC(c1ccccc1)c1ccccc1,BACTEC,H37Rv,12.5 µg/mL,,,inhibition,51%
CC(C)(C)c1cc(C(C)(C)C)c2oc(-c3cccc(C(F)(F)F)c3)nc2c1,BACTEC,H37Rv,6.25 µg/mL,,,inhibition,<90%
O=C1CCc2cc(N3CCN(C(=O)c4cccc(Cl)c4)CC3)ccc21,turbidity,Wild type without biotin,,,,MIC90,16 µM
CCOC(=O)C1CC(=O)C2/C(=C(\O)c3ccccc3)C=C([N+](=O)[O-])C1C2[N+](=O)[O-],resazurin,H37Rv,6.25 µg/mL,,,inhibition,2%
CC(C)(C)c1cc(C(C)(C)C)c2oc(-c3ccc(F)c(Oc4ccccc4)c3)nc2c1,BACTEC,H37Rv,6.25 µg/mL,,,inhibition,<90%
C[C@@H](B1OC2CC3CC(C3(C)C)[C@@]2(C)O1)[C@@H](Cc1ccccc1)NC(=O)[C@@H]1CCCN1,,H37Rv,,,,MIC,≤500 µg/mL
[N-]=[N+]=NCCCCCCCCN1C(=O)C2(OCCO2)c2ccccc21,,MC2 6230,,,,MIC99,>303 µM
CC(C)(C)c1cc(C(C)(C)C)c2oc(/C=C/c3ccccc3)nc2c1,,H37Rv,,,,MIC,>128 µg/mL
Cc1ccccc1N=Nc1c(O)c2cc(-c3ccccc3)ccc2oc1=O,resazurin,H37Rv,6.25 µg/mL,,,inhibition,17%
CC1(C)C2CC3OB(C[C@@H](CCc4ccccc4)NC(=O)[C@@H](N)CCCCN)O[C@]3(C)C1C2,,H37Rv,,,,MIC,≤500 µg/mL
N#Cc1c(-c2cccnc2)nc(NCCN2CCOCC2)[nH]c1=O,,H37Ra,,,,MIC,25–50 µg/mL
O=c1oc2ccccc2cc1-c1cs/c(=N\N=C\c2cc(Br)ccc2O)n1Cc1ccccc1,,H37Rv,6.25 µg/mL,,,inhibition,<11%
O=c1[nH]c2ccccc2c(O)c1N=Nc1ccccc1,resazurin,H37Rv,,,,MIC,<6.25 µg/mL
CCN(CC)CCNc1ccc(CO)c2oc3ccc(OS(=O)(=O)c4ccc(C)cc4)cc3c(=O)c12,BACTEC,H37Rv,,,,MIC bound,≤12.5 µg/mL
CC(C)(C)c1cc(C(C)(C)C)c2oc(-c3ccc(Br)cc3)nc2c1,BACTEC,H37Rv,6.25 µg/mL,,,inhibition,94%
Cc1ccc2c(c1)C1(C)C=C(CN3CCN(C)CC3)C(=O)CC1O2,BACTEC,H37Rv,12.5 µg/mL,,,inhibition,-6%
NCCCC[C@H](N)C(=O)N[C@@H](CB(O)O)Cc1ccccc1,agar,H37Rv,,,,MIC,≤50 µg/mL
CC(=O)c1c(C)[nH]c(C(=O)N/N=C/c2ccc([N+](=O)[O-])cc2)c1C,resazurin,H37Rv,,,,MIC,<6.25 µg/mL
O=c1oc2ccccc2cc1-c1cs/c(=N\N=C\c2cc([N+](=O)[O-])ccc2O)n1Cc1ccccc1,,H37Rv,,,,MIC,>6.25 µg/mL
Cc1ccc(-c2nc(N3CCN(C)CC3)[nH]c(=O)c2C#N)cc1,,H37Ra,,,,MIC,>50 µg/mL
C[C@@H]1CC[C@@]2(NC1)O[C@H]1C[C@H]3[C@@H]4CC=C5C[C@@H](O[C@@H]6O[C@H](CO)[C@@H](O[C@@H]7O[C@@H](C)[C@H](O)[C@@H](O)[C@H]7O)[C@H](O)[C@H]6O[C@@H]6O[C@@H](C)[C@H](O)[C@@H](O)[C@H]6O)CC[C@]5(C)[C@H]4CC[C@]3(C)[C@H]1[C@@H]2C,BACTEC,H37Rv,,,,MIC bound,>12.5 µg/mL
O=c1oc2ccc(Br)cc2cc1-c1cs/c(=N\N=C\c2cc([N+](=O)[O-])ccc2O)n1Cc1ccccc1,,H37Rv,6.25 µg/mL,,,inhibition,11%
CC(=O)c1ccc(-c2cn(Cc3cccc(Cl)c3)nn2)cc1,turbidity,BioA overexpression strain,,,,MIC50,>50 µM
CCCCNc1nc(-c2ccc(F)cc2)c(C#N)c(=O)[nH]1,,H37Ra,,,,MIC,>50 µg/mL
O=C(NNC(=O)c1ccc2ccccc2n1)c1ccc2ccccc2n1,BACTEC,H37Rv,,,,MIC bound,>12.5 µg/mL
CC(C)(C)c1cc(C(C)(C)C)c2oc(-c3ccc(C(F)(F)F)cc3)nc2c1,BACTEC,H37Rv,6.25 µg/mL,,,inhibition,<90%
CCN(CC)CCSc1nc2c([N+](=O)[O-])cccc2[nH]1,resazurin,H37Rv,,,,MIC bound,>6.25 µg/mL
O=c1[nH]c2c([N+](=O)[O-])cccc2c(O)c1N=Nc1cccc([N+](=O)[O-])c1,resazurin,H37Rv,6.25 µg/mL,,,inhibition,60%
Cc1ccc(S(=O)(=O)OC[C@H]2O[C@@]3(COS(=O)(=O)c4ccc(C)cc4)OC(C)(C)O[C@H]3[C@@H]2O)cc1,BACTEC,H37Rv,,,,MIC bound,>12.5 µg/mL
Cc1ccn2nc(C)c(C(=O)NCc3ccc(-c4ccc(OC(F)(F)F)cc4)cn3)c2c1,resazurin,FQ-R1,,gyrB mutant fluoroquinolone resistant,,MIC,0.009 µg/mL
CC(C)(C)c1cc(C(C)(C)C)c2oc(-c3ccn[nH]3)nc2c1,BACTEC,H37Rv,6.25 µg/mL,,,inhibition,72%
CCN(CC)CCNc1ccc2ncn3c4ccc(O)cc4c(=O)c1c23.Cl,BACTEC,H37Rv,,,VERO,MIC,12.5 µg/mL
COc1ccc(-c2nc(NCCN3CCOCC3)[nH]c(=O)c2C#N)cc1,,H37Ra,,,,MIC,>50 µg/mL
Clc1ccccc1CNCC1CCCC(CNCc2ccccc2Cl)C1,,H37Rv,20 µM,,,inhibition,0%
COc1cc(Br)c2nsnc2c1,BACTEC,H37Rv,,,,MIC bound,>12.5 µg/mL
Fc1cccc(F)c1CNCC1CCCC(CNCc2c(F)cccc2F)C1,,H37Rv,20 µM,,,inhibition,0%
O=C(N/N=C(\COc1ccccc1)N=Cc1cccnc1)c1ccncc1,,INH-r,,,,MIC,50 µg/mL
CCn1cc(C(=O)O)c(=O)c2cc(F)c(N3CCNC(C)C3)c(F)c21,,79 strains (drug-susceptible),,,,MIC50,0.96 µg/mL
Cc1c(F)c(N2CCNC(C)C2)cc2c1c(=O)c(C(=O)O)cn2C1CC1,,,,,,MIC90,1 µg/mL
CC(=O)c1ccc(N2CCN(C(=O)c3cc(Cl)cc(Cl)c3)CC2)cc1,turbidity,BioA underexpression strain,,,,MIC50,>50 µM
COc1ccc(/C=N/NC(=O)CN(CC(=O)N/N=C/c2ccc(OC)cc2)N=O)cc1,BACTEC,H37Rv,,,,MIC bound,>12.5 µg/mL
Cc1cccc(OC/C(N=Cc2ccncc2)=N\NC(=O)c2ccncc2)c1,,INH-r,,,,MIC,>100 µg/mL
Cn1nnnc1-c1ccc(N2CCN(C(=O)c3cccc(Cl)c3)CC2)cc1,turbidity,Wild type without biotin,,,,MIC50,>50 µM
NNC(=O)c1ccncc1,resazurin,INH-R1,,katG mutant isoniazid resistant,,MIC,>27 µg/mL
C[C@H]1COc2c(N3CCN(C)CC3)c(F)cc3c(=O)c(C(=O)O)cn1c23,,,,,,MIC50,0.5–4 µg/mL
[N-]=[N+]=NCCCCCCN1C(=O)C(=O)c2cc(F)ccc21,,MC2 6230,,,,MIC99,172 µM
CC1(C)C2CC3OB(C[C@@H](Cc4ccccc4)NC(=O)[C@@H](N)CCCN=C(N)N)O[C@]3(C)C1C2,,H37Rv,,,,MIC,≤50 µg/mL
COc1ccc(OC/C(N=Cc2ccncc2)=N\NC(=O)c2ccncc2)cc1,,INH-r,,,,MIC,50 µg/mL
C[C@@H](B1OC2CC3CC(C3(C)C)[C@@]2(C)O1)[C@@H](Cc1ccccc1)NC(=O)[C@H](Cc1ccccc1)NC(=O)[C@@H](N)CCCCN,,H37Rv,,,,MIC,≤50 µg/mL
CC(C)=NNC(=O)C1CCN1C(c1ccccc1)c1ccccc1,BACTEC,H37Rv,,,,MIC bound,>12.5 µg/mL
CN(C)c1ccc(-c2nc3cc(C(C)(C)C)cc(C(C)(C)C)c3o2)cc1,BACTEC,H37Rv,,,,MIC,>6.25 µg/mL
O=C(N/N=C(\COc1ccc(Cl)cc1)N=Cc1ccncc1)c1ccncc1,,H37Rv(ATCC25584),,,,MIC,>100 µg/mL
N[C@@H]1CN(c2c(F)cc3c(=O)c(C(=O)O)cn([C@@H]4C[C@@H]4F)c3c2Cl)CC12CC2,,,,,,MIC90,0.12–2 µg/mL
N#Cc1c(-c2cccnc2)nc(NCCCN2CCOCC2)[nH]c1=O,,H37Ra,,,,MIC,>50 µg/mL
CN(C=O)C(=S)[S][Sb]([S]C(=S)Nc1ccc(S(=O)(=O)Nc2ccc(N=Nc3ccccc3)cc2)cc1)[S]C(=S)N(C)C=O,BACTEC,H37Rv,128 µg/mL,,,inhibition,100%
[N-]=[N+]=NCCCCCN1C(=O)C(=O)c2cc(F)ccc21,,MC2 6230,,,,MIC99,>368 µM
COc1ccc(CNCC2CCCC(CNCc3ccc(OC)cc3)C2)cc1,,H37Rv,20 µM,,,inhibition,0%
O=C(Nc1ccc(Cl)cc1)Nc1ccc(Cl)c(C(F)(F)F)c1,BACTEC,H37Rv,,,,MIC bound,≤12.5 µg/mL
Cc1ccc(OC/C(N)=N\NC(=O)c2ccncc2)cc1,,INH-r,,,,MIC,50 µg/mL
COc1cc(N=Nc2cc(S(=O)(=O)[O-])c3cccnc3c2O)ccc1-c1ccc(N=Nc2cc(S(=O)(=O)[O-])c3cccnc3c2O)cc1OC.[Na+].[Na+],BACTEC,H37Rv,,,,MIC bound,>12.5 µg/mL
COc1ccc(/C=N/N=c2\scc(-c3cc4cc(Br)ccc4oc3=O)n2Cc2ccccc2)cc1OC,,H37Rv,,,,MIC,>6.25 µg/mL
CC1(C)C2CC3OB(C[C@@H](Cc4ccccc4)NC(=O)[C@H](N)CCCCN)O[C@]3(C)C1C2,,H37Rv,,,,MIC,≤500 µg/mL
CC(=O)c1ccc(N2CCN(C(=O)c3cccc(Cl)c3)CC2)s1,turbidity,Wild type without biotin,,,,MIC90,34.1 µM
Cc1cccc(N=Nc2c(O)c3c(ccc4ccccc43)oc2=O)c1C,resazurin,H37Rv,6.25 µg/mL,,,inhibition,64%
COc1cc(O)c2c(O)c3c(=O)cc(C)oc3cc2c1,,EMB-R,,,,MIC,>12.5 µg/mL
Cc1ccc(-c2nc(NCc3ccccc3)[nH]c(=O)c2C#N)cc1,,H37Ra,,,,MIC,>50 µg/mL
O=C(N/N=C(\COc1ccc([N+](=O)[O-])cc1)N=Cc1cccnc1)c1ccncc1,,INH-r,,,,MIC,100 µg/mL
CC1=NN(C(=O)CC(=O)Nc2ccc(C(=O)O)cc2)C(=O)C1N=Nc1ccc(S(N)(=O)=O)cc1,BACTEC,H37Rv,12.8 µg/mL,,,inhibition,19%
[N-]=[N+]=NCCCN1C(=O)C2(OCCO2)c2cc(F)ccc21,,MC2 6230,,,,MIC99,>343 µM
O=C(NN1C(=O)CS(=O)(=O)C1c1ccccc1F)c1ccncc1,,H37Rv,,,,MIC,5 µg/mL
N/C(COc1cccc(Cl)c1)=N/NC(=O)c1ccncc1,,H37Rv(ATCC25584),,,,MIC,12.5 µg/mL
COC(=O)/C(=N\O)c1[nH]c2ccccc2c1[C@H]1SC[C@@H](O)C(c2ccc(O)c(OC)c2)(c2ncc[nH]2)S1,,H37Rv,,,,EC50,>12.5 µg/mL
O=C(CCCCC(=O)N/N=C/c1cccc2ccccc12)N/N=C/c1cccc2ccccc12,BACTEC,H37Rv,,,,MIC bound,>12.5 µg/mL
O=C(NN1C(=O)CS(=O)(=O)C1c1ccc(Cl)cc1Cl)c1ccncc1,,14PI,,,,MIC,>5 µg/mL
[N-]=[N+]=NCCCCCCN1C(=O)C2(OCCO2)c2ccccc21,,MC2 6230,,,,MIC99,158 µM
C1CNCCN1.S=C(S)N1CCNCC1,BACTEC,H37Rv,12.5 µg/mL,,,inhibition,5%
Cc1cccc(N=Nc2c(O)c3cccc([N+](=O)[O-])c3[nH]c2=O)c1,resazurin,H37Rv,,,,MIC,<6.25 µg/mL
O=C(NN1C(=O)CSC1c1ccc(F)cc1)c1ccncc1,,14PI,,,,MIC,5 µg/mL
O=c1c(O)c(-c2ccccc2)oc2cc(O)cc(O)c12,BACTEC,H37Rv,,,,MIC bound,>12.5 µg/mL
Clc1cccc(Cl)c1CNCC1CCCC(CNCc2c(Cl)cccc2Cl)C1,,H37Rv,20 µM,,,inhibition,0%

The first 8 rows once more:

compound,method,strain or isolate,dose,mutations,cells,measure,result
O=[N+]([O-])c1ccc(CNCC2CCCC(CNCc3ccc([N+](=O)[O-])cc3)C2)cc1,,H37Rv,20 µM,,,inhibition,0%
N#Cc1c(-c2cccnc2)nc(N2CCN(c3ccccc3)CC2)[nH]c1=O,,H37Ra,,,,MIC,>50 µg/mL
CC(=O)c1c(C)[nH]c(C(=O)N/N=C/c2cccc([N+](=O)[O-])c2)c1C,resazurin,H37Rv,,,,MIC,<6.25 µg/mL
NC(CCSS(=O)(=O)O)=NCC(c1ccccc1)c1ccccc1,BACTEC,H37Rv,12.5 µg/mL,,,inhibition,51%
CC(C)(C)c1cc(C(C)(C)C)c2oc(-c3cccc(C(F)(F)F)c3)nc2c1,BACTEC,H37Rv,6.25 µg/mL,,,inhibition,<90%
O=C1CCc2cc(N3CCN(C(=O)c4cccc(Cl)c4)CC3)ccc21,turbidity,Wild type without biotin,,,,MIC90,16 µM
CCOC(=O)C1CC(=O)C2/C(=C(\O)c3ccccc3)C=C([N+](=O)[O-])C1C2[N+](=O)[O-],resazurin,H37Rv,6.25 µg/mL,,,inhibition,2%
CC(C)(C)c1cc(C(C)(C)C)c2oc(-c3ccc(F)c(Oc4ccccc4)c3)nc2c1,BACTEC,H37Rv,6.25 µg/mL,,,inhibition,<90%